Laboratory results reported in patent US20240123029.

Molecular target: T1, C-PTX3
T1 sequence: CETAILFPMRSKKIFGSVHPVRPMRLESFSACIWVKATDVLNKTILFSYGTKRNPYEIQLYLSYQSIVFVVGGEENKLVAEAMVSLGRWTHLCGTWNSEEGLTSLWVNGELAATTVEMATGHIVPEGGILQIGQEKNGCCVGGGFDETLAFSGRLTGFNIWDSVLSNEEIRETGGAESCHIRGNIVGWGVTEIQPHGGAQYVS

Biotinylated SARS-CoV-2 Nucleocapsid protein, His Tag
EC50 (read off the curve): 5 nM
